# Tested on: P. aeruginosa PA14 feoB::MAR2xT7 mutant
# Test: Flow cell biofilm development, feoB::MAR2xT7 mutant, 1% TSB with conalbumin
# Conditions: 40 μg/ml conalbumin
molecule,measurement,value
"conalbumin: Fe(III)-binding protein of the transferrin family, an Fe(III) chelator; substantially iron-free, from Sigma-Aldrich (protein, UniProt P02789 20-705, looked up, iron-free, substantially iron-free, from Sigma-Aldrich) Ovotransferrin: APPKSVIRWCTISSPEEKKCNNLRDLTQQERISLTCVQKATYLDCIKAIANNEADAISLDGGQAFEAGLAPYKLKPIAAEVYEHTEGSTTSYYAVAVVKKGTEFTVNDLQGKTSCHTGLGRSAGWNIPIGTLLHRGAIEWEGIESGSVEQAVAKFFSASCVPGATIEQKLCRQCKGDPKTKCARNAPYSGYSGAFHCLKDGKGDVAFVKHTTVNENAPDQKDEYELLCLDGSRQPVDNYKTCNWARVAAHAVVARDDNKVEDIWSFLSKAQSDFGVDTKSDFHLFGPPGKKDPVLKDLLFKDSAIMLKRVPSLMDSQLYLGFEYYSAIQSMRKDQLTPSPRENRIQWCAVGKDEKSKCDRWSVVSNGDVECTVVDETKDCIIKIMKGEADAVALDGGLVYTAGVCGLVPVMAERYDDESQCSKTDERPASYFAVAVARKDSNVNWNNLKGKKSCHTAVGRTAGWVIPMGLIHNRTGTCNFDEYFSEGCAPGSPPNSRLCQLCQGSGGIPPEKCVASSHEKYFGYTGALRCLVEKGDVAFIQHSTVEENTGGKNKADWAKNLQMDDFELLCTDGRRANVMDYRECNLAEVPTHAVVVRPEKANKIRDLLERQEKRFGVNGSEKSKFMMFESQNKDLLFKDLTKCLFKVREGTTYKEFLGDKFYTVISSLKTCNPSDILQMCSFLEGK",Biofilm formation with conalbumin (iron-free form) added,neither strain formed biofilms
